Article PMC11003968 (Scientific Reports, 2024)

Biological target: IsdB Y165A, site-directed mutant of Staphylococcus aureus IsdB (Staphylococcus aureus, UniProt Q2FZF0 41-613, Y165A)
Experiment: ELISA
Details: both partners purified

B1: Human hemoglobin A (oxyhemoglobin) (complex)
chain 1: not shown
chain 2: not shown
  Kd: 84 ± 11 µM
